The values are deposited in ChEMBL (CHEMBL3988442, “University of Dundee, Small-Polar-MMV Screening Library” (2021)).

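Phenotypic screen: M. tuberculosis growth, glucose 7H9 medium, 3 days; the read-out is not stated. Compounds at 500 µM. The record gives no direction; compounds that gave an IC50 in retests scored well above the rest, so higher reads as more growth inhibition. Size under these conditions: about 18,000 compounds, about 1,400 of them at 50% or above in at least one test.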

The filed quantity is “Percent Effect” (%). How 0% and 100% were set is not recorded. Most values in the screen are low, and negative values occur. Many other results are left out here, so strong results are more common than in the screen.

| Compound | effect |
|---|---|
| `Cc1cc(N2CCNCC2)ccn1` | 4.598 |
| `CNC(=O)c1cccc(NCc2cccnc2)n1` | 5.019 |
| `O=C(CO)NC1CCCc2ccccc21` (stereo unspecified) | 20.8 |
| `N#CCCNC(=O)COc1cc(Cl)ccc1C(N)=O` | 22.84 |
| `COCC(=O)Nc1cccc(C)c1C(=O)N1CCCC1` | 9.751 |
| `CCN(CC(=O)NC)S(=O)(=O)N1CCOCC1` | -2.095 |
| `CN(C)S(=O)(=O)N(C)CCc1ccccn1` | 2.286 |
| `Cc1ccc(CNCCOc2ccccn2)o1` | 50.76 |
| `Brc1cncc(NCCOCC2CCCO2)c1` (stereo unspecified) | 48.68 |
| `c1cnn(CC2CCNCC2)c1` | -4.667 |
| `NCc1cnc2ccsc2c1` | 7.796 |
| `Cc1ccc2ncc(CO)cc2c1` | 31.59 |
| `CCC(CN)NC(=O)OC(C)(C)C` (stereo unspecified) | 15.1 |
| `NS(=O)(=O)c1ccc(O)c(F)c1` | 7.147 |
| `CNc1cc(C(=O)NCC(OC)c2cccs2)ccn1` (stereo unspecified) | 50.74 |
| `NC(=O)C[C@@H](N)c1ccccc1Cl` | 1.089 |
| `CC(C)N1CC(NC(=O)c2ccc3ccccc3n2)C1` | 17.18 |
| `CC(C)Cn1cncc1CNC(=O)CN1CCOCC1` | 9.13 |
| `CCN(CC)c1ccc(C(=O)Nc2cc[nH]n2)cn1` | 70.85 |
| `CNC(=O)c1ccc(C#N)cc1` | 5.431 |
| `O=C(NCCN1CCCC1)c1ccc2ccccc2n1` | 80.38 |
| `c1ccc2[nH]c(N3CCNCC3)nc2c1` | 13.22 |
| `NC1CCN(C(=O)Nc2ccccc2)C1` (stereo unspecified) | -7.854 |
| `COc1ccc(NC(=O)N2CCCN(C)CC2)cc1F` | 62.04 |
| `COc1ccc(C(=O)N2CCC(N)CC2)cc1OC` | 24.19 |
| `COc1ccc(CC#N)cc1S(C)(=O)=O` | -0.02476 |
| `O=C(NC1CCN(C2CCSCC2)CC1)c1ccon1` | -24.51 |
| `O=C(CN1CCCC1)NCC1COc2ccccc2O1` (stereo unspecified) | 8.242 |
| `CN(C)c1ccc(CNC(=O)C2CCCO2)cc1` (stereo unspecified) | 50.31 |
| `CCN(CCN1CCCCCC1)C(=O)c1cnc[nH]1` | -11.9 |
| `O=C1CCCN1CCCNS(=O)(=O)c1ccc(Br)s1` | 56.75 |
| `c1ccc(OCCCOC2CNC2)cc1` | 59.62 |
| `COc1cc(OC)cc(N2CCC(N)C2)c1` (stereo unspecified) | 76.13 |
| `NC(=O)C1CCN(CCCOc2ccccc2)CC1` | 7.649 |
| `C=C(C)CN1CCC(NC(=O)N2CCSCC2)CC1` | 5.958 |
| `NC1CCCN(S(=O)(=O)C=Cc2cccc(Cl)c2)C1` (stereo unspecified) | 79.13 |
| `Cc1cccc(NC(=O)Cn2cnnn2)c1` | 3.502 |
| `Cn1ccnc1C(N)c1ccccc1F` (stereo unspecified) | 5.255 |
| `CCCn1ccnc1-c1nc2c([nH]1)CCCNC2=O` | -11.23 |
| `CCS(=O)(=O)c1cc(OC)c(OC)cc1C` | 21.99 |
| `N#Cc1cccc(CN2CCn3ccnc3C2)c1` | 0.5001 |
| `CC1(COC(=O)c2cccnc2)CCCO1` (stereo unspecified) | 5.267 |
| `CC(C)n1cnnc1CCNC(=O)C1(C)CCCCO1` (stereo unspecified) | -2.071 |
| `N[C@H]1CC[C@@H](C(F)(F)F)C1` | 13.88 |
| `Cc1ccc2c(c1)C(O)CCCS2(=O)=O` (stereo unspecified) | 10.12 |
| `CCn1ncnc1CN1CC(Oc2ccccc2)C1` | 68.6 |
| `Cc1c[nH]c(C(C)NC(=O)c2ccccc2C#N)n1` (stereo unspecified) | 5.812 |
| `Cc1c(Br)cccc1C(=O)NCCCNS(C)(=O)=O` | 15.17 |
| `CC(C)(C)OC(=O)N1CC(N)CC(F)(F)C1` (stereo unspecified) | -6.027 |
| `CCn1nc(C)cc1C(=O)N1CCN=C1SC` | 4.135 |
| `CC(CO)(CO)NCc1cc2ccccc2s1` | 5.287 |
| `CCc1ccc(C(=O)NC2CCS(=O)(=O)C2)o1` (stereo unspecified) | 20.2 |
| `COCc1cccc(C(=O)NCC[C@@H]2CCCN2)c1` | 18.55 |
| `COc1ccc(OC)c(NC(=O)CN2CCNCC2)c1` | 6.579 |
| `CN(C)C(=O)c1csc2c1CCCC2` | 46.53 |
| `Nc1nnc(SCC(=O)NCCCc2cccnc2)s1` | 13.82 |
| `CC(Sc1nc2ncccn2n1)C(=O)NC1CC1` (stereo unspecified) | -2.022 |
| `CCNC(=O)c1cc(N2CCC(COC)CC2)ccn1` | 57.59 |
| `Cc1c[nH]c(CN(C)CCC(=O)Nc2cccnc2)n1` | 9.586 |
| `CC(C)(N)CN1CCCN(c2ccc(F)cc2)CC1` | 72.65 |
| `Cc1nn(C)c(C)c1CC(N)=O` | 6.181 |
| `CCCc1nnc(N2CCC3(CC2)OCC(C)O3)s1` (stereo unspecified) | 90.75 |
| `Cc1n[nH]c(SCC(=O)NC[C@H]2CCCN2)n1` | -2.26 |
| `CN(C)S(=O)(=O)N1CCC(Oc2ccccc2Cl)CC1` | 84.12 |
| `O=C(NCCO)NC1CCS(=O)(=O)C1` (stereo unspecified) | 0.893 |
| `CC(=O)N1CCN(C(=O)NCCCNS(C)(=O)=O)CC1` | -8.232 |
| `COC(=O)CS(=O)(=O)c1ccc(C)c(Cl)c1` | 80.75 |
| `C1CC(OCCN2CCOCC2)CCN1` | 3.178 |
| `Cc1nn(-c2ccc(F)cc2)c(Cl)c1C(=O)N(C)C` | 26.73 |
| `Cc1ncsc1C(=O)NCC(C)(C)CN(C)C` | 3.412 |
| `Cc1ccc(C(=O)N2CCC(N3CCN(C)CC3)C2)s1` (stereo unspecified) | 6.744 |
| `CN(C)CC1CCN(CC(=O)N(C)CC(F)(F)F)CC1` | 7.545 |
| `CC1(C#N)CCN(CCn2cc(Cl)cn2)CC1` | 13.89 |
| `CN1CCC(C(=O)N(C)Cc2ccccn2)CC1=O` (stereo unspecified) | -11 |
| `Cc1ccc(NC(=O)CCSCC(N)=O)c(C)c1` | 27.7 |
| `CCCNC(=O)c1cc(Br)c[nH]1` | 52.28 |
| `CCNCc1ccc(OCC(N)=O)cc1` | -1.02 |
| `C=C(C)COCCNC(=O)c1c(O)cccc1F` | 50.33 |
| `Cc1cc(C)c(CNC(=O)Cc2cccs2)c(=O)[nH]1` | 27.21 |

For reference, 6 entries once more:

Compound	effect
Cc1ncsc1C(=O)NCC(C)(C)CN(C)C	3.412
N[C@H]1CC[C@@H](C(F)(F)F)C1	13.88
C=C(C)CN1CCC(NC(=O)N2CCSCC2)CC1	5.958
Cc1ccc(NC(=O)CCSCC(N)=O)c(C)c1	27.7
CNC(=O)c1cccc(NCc2cccnc2)n1	5.019
Cn1ccnc1C(N)c1ccccc1F (stereo unspecified)	5.255